Measured values from several laboratories, pooled; numbers as filed in NIAID ChemDB.

Shared fields: cytotoxicity tests; read-out: CC50

Rows are shuffled and stem from different studies. An empty or dashed field is not shown. CCn: concentration that lowers growth or viability of the cells by n%.

smiles	cell line	read by	value
Nc1ccc(-c2n[nH]c(=O)n2-c2ccccc2)cc1	P-388	-	>5 µg/mL
CCOC(=O)c1ccc(OCCCOc2ccc(-c3snc(SC)c3C#N)cc2)cc1	HEP-2/L-929/VERO	-	2 µM
OC[C@H]1O[C@@H](On2cnc3c(Cl)ncnc32)CS1	2.2.15	-	>100 µg/mL
OC[C@H]1O[C@@H](n2ccc3c(-c4ccco4)nc(F)nc32)C(O)C1O	K562 leukemia cells	MTT	6.18 µM
C/C(=C\c1cn(C)c2ccc(C#N)cc12)C(=O)Nc1ccc(C(C)(C)C)cc1	Huh7.5	MTT	27.2 µM
COC(=O)N[C@H](C(=O)NCCCC[C@@H](CN)N(CCC(C)C)S(=O)(=O)c1ccc(N)cc1)C(c1ccccc1)c1ccccc1	T lymphoid cells	microscopy	>10 µM
Cc1cn([C@@H]2C[C@@H](N=[N+]=[N-])[C@H](COP(=O)(CN=[N+]=[N-])OC[C@H]3O[C@@H](n4cc(C)c(=O)[nH]c4=O)C[C@@H]3N=[N+]=[N-])O2)c(=O)[nH]c1=O	CEM-SS	-	24.5 µM
OC[C@H]1O[C@@H](n2ccc3c(-c4cc5ccccc5o4)nc(Cl)nc32)C(O)C1O	K562 leukemia cells	MTT	11 µM
Nc1ncnc2c1nc(I)n2[C@H]1CC[C@@H](CO)C1	HepG2 2.2.15	visual reading	9 µM
Nc1nc(N)c2ncn(C[C@H]3CO[C@H](P(=O)(O)O)O3)c2n1	FLOW 2002	-	100 µg/mL
COC1=CC(=O)C2=C(C1=O)C(/C=C(\C)CCC=C(C)C)Oc1cc(OC)c(O)c(C/C=C(\C)CCC=C(C)C)c12	L6 rat skeletal myoblasts	resazurin	65 µM
Nc1nc(N)c2ncn(C[C@H]3CC[C@H](P(=O)(O)O)O3)c2n1	FLOW 2002	-	>100 µg/mL
O=c1[nH]cnc2c1ncn2O[C@@H]1CO[C@@H](CO)O1	2.2.15	-	>100 µg/mL
CCCCN1C(c2sc(C)nc2C)=NNC1SC	KBALB	MTT	>100 µM
Nc1nc(-c2ccc(Cl)cc2)cc(C2CCN(C(=O)c3ccc4c(c3)OCO4)CC2)n1	Jurkat cells (PMA-stimulated)	-	>5 µM
Cc1cn([C@H]2C[C@H](N=[N+]=[N-])[C@@H](CO)O2)c(=O)[nH]c1=O	CEM-SS	-	142 µM
C/C(=C\c1cn(CCN(C)C)c2ccccc12)C(=O)Nc1ccc(C(C)(C)C)cc1	Huh7.5	MTT	6.9 µM
CC(C)CCN([C@@H](CCCCNC(=O)[C@@H](N)C(c1ccccc1)c1ccccc1)C(C)O)S(=O)(=O)c1ccc(N)cc1	T lymphoid cells	microscopy	>10 µM
OC[C@@H](O)[C@@H]1NC[C@@H](O)[C@H]1O	T CELLS	-	>160 µg/mL
C=C(C)[C@@H]1CCC2(C(=O)NCCC(=O)OCC)CC[C@]3(C)C(CCC4[C@@](C)(CC#N)C(C(C)(C)C(=O)NCCC(=O)OCC)CC[C@]43C)C12	RD TE32	MTT	72 µM
CCOC(=O)/C=C/[C@H](C[C@@H]1CCNC1=O)NC(=O)[C@@H](CC(=O)[C@@H](NC(=O)c1cc(C)on1)C(C)C)Cc1ccc(F)cc1	OHIO HELA-I	-	>100 µg/mL
CSc1nsc(-c2ccc(OCCOc3ccc(C#N)cc3)cc2)c1C#N	HEP-2/L-929/VERO	-	2 µM
COC(=O)N[C@H](C(=O)N[C@H](C)CCC[C@@H](CO)N(CCC(C)C)S(=O)(=O)c1ccc(N)cc1)C(c1ccccc1)c1ccccc1	T lymphoid cells	microscopy	>10 µM
COc1cc(C)c2c(-c3ccc(C(F)(F)F)cc3)c(OC)cc(NC(C)CCCN)c2n1	RAW 264.7	-	1.2 µg/mL
Cc1nc2c(N)ncnc2n1[C@H]1CC[C@@H](CO)C1	HepG2 2.2.15	visual reading	>200 µM
Nc1ccn(C[C@@H](CO)OCP(=O)(O)O)c(=O)n1	CBL	neutral red	>159 µM
O=c1[nH]cnc2c1ncn2O[C@@H]1CS[C@@H](CO)O1	2.2.15	-	>100 µg/mL
CCC(C)CC(C)/C=C(C)/C=C/C=C/C(O)=C1\C(=O)NC(C(O)c2ccc(O)cc2)C1=O	A549 human lung carcinoma cells	MTT	>120 µM
COc1ccc(Cc2cc(C3CCN(C(=O)c4cccc5c4OCO5)CC3)nc(N)n2)cc1	Jurkat cells (PMA-stimulated)	-	>5 µM
COC(=O)N[C@H](C(=O)N[C@H](CCC[C@@H](CO)N(CCC(C)C)S(=O)(=O)c1ccc(N)cc1)C1CC1)C(c1ccccc1)c1ccccc1	T lymphoid cells	microscopy	>10 µM
OC[C@@H]1OC[C@@H](On2cnc3c(Cl)ncnc32)O1	2.2.15	-	>100 µg/mL
OC[C@H]1O[C@@H](n2ccc3c(-c4cccs4)nc(F)nc32)C(O)C1O	CCRF-CEM leukemia cells	MTT	38.4 µM
Nc1ncnc2c1nc(Cl)n2[C@H]1CC[C@@H](CO)C1	HepG2 2.2.15	visual reading	>200 µM
Nc1ccn([C@H]2CC[C@@H](CO)O2)c(=O)n1	1G5 T	trypan blue	>1 µM
CCc1nc2ccc(C)cc2n1CCCNc1ccccc1	Macrophages	luminescence	>50 µM
Nc1nc2c(ncn2COCCO)c(=O)[nH]1	H-1	-	1000 µM
CSc1nsc(-c2ccc(OCCOc3ccccc3)cc2)c1C#N	HEP-2/L-929/VERO	-	>20 µM
COC(=O)CCCCCN1C[C@@H](O)[C@H](O)[C@H](O)[C@@H]1C	T CELLS	-	>250 µg/mL
OC[C@@H]1OC[C@H](On2cnc3c(Cl)ncnc32)O1	2.2.15	-	>100 µg/mL
CCc1nc2ccc(C)cc2n1CCCCNc1cccc(C(F)(F)F)c1	VERO	luminescence	5.7 µM
Nc1nc2c(ncn2C[C@@H]2CO[C@H](P(=O)(O)O)O2)c(=O)[nH]1	FLOW 2002	-	>100 µg/mL
OC[C@H]1O[C@@H](n2ccc3c(-c4cc5ccccc5o4)nc(F)nc32)C(O)C1O	K562 leukemia cells	MTT	47.6 µM
CCCCCCCCCCCCCCCCCCOP(=O)(OCCCC)OP(=O)(O)OP(=O)(O)OP(=O)(O)OC[C@@H]1C=C[C@H](n2cc(C)c(=O)[nH]c2=O)O1	CD4+ T-cell	MTT	30 µM
C/C(=C\c1cn(CCN2CCOCC2)c2ccccc12)C(=O)Nc1ccc(C(C)(C)C)cc1	Huh7.5	MTT	19.7 µM
O=c1[nH]cnc2c1ncn2[C@@H]1O[C@H](CO)C[C@@H]1F	ATH8	-	>100 µM
COc1ccc(OC)c(Cc2cc(C3CCN(C(=O)c4ccc5c(c4)OCO5)CC3)nc(N)n2)c1	Jurkat cells (PMA-stimulated)	-	0.2 µM
[O-][n+]1onc2ncnc(N3CC[N+]4(CC3)CC[N+]3(CCN(c5ncnc6no[n+]([O-])c56)CC3)CC4)c21	GMK	-	>1760 µM
COC(=O)N[C@H](C(=O)N[C@H](CCC[C@@H](CO)N(CCC(C)C)S(=O)(=O)c1ccc(CO)cc1)C(F)(F)F)C(c1ccccc1)c1ccccc1	T lymphoid cells	microscopy	>10 µM
Clc1ccc(Cn2c(CN3CCCC3)nc3ccccc32)cc1	Huh7.5	MTT	34.6 µM
O=C(N/N=C/c1ccc(O)cc1)Nc1cccc2nsnc12	Cf2Th-CD4/CXCR4	ATP	63 µM
OC[C@H]1[C@H](O)[C@H](O)CN1Cc1ccccc1	T CELLS	-	>100 µg/mL
Cc1cn([C@@H]2C[C@@H](N=[N+]=[N-])[C@H](COP(=O)(CF)OC[C@H]3O[C@@H](n4cc(C)c(=O)[nH]c4=O)C[C@@H]3N=[N+]=[N-])O2)c(=O)[nH]c1=O	CEM-SS	-	29 µM
CCc1nc2ccc(C)cc2n1CCCCSc1ccccc1	VERO	luminescence	9.5 µM
COc1ccc(Cc2cc(C3CCN(C(=O)c4ccc5nsnc5c4)CC3)nc(N)n2)cc1	Jurkat cells (PMA-stimulated)	-	>5 µM
CC[C@@H](CCC[C@@H](CO)N(CCC(C)C)S(=O)(=O)c1ccc(N)cc1)NC(=O)[C@@H](NC(=O)OC)C(c1ccccc1)c1ccccc1	T lymphoid cells	microscopy	>10 µM
C/C(=N\NC(=O)c1ccncc1)c1ccc([N+](=O)[O-])cc1	HEL cells	MTT	54 µg/mL
CCOC(=O)CCCCCOc1cccc(CN(C(=O)c2ccc(-c3cc4ccccc4n3S(=O)(=O)c3ccccc3)cc2)C(C)C)c1	HEK 293	-	>20 µM
COc1ccc(Cc2cc(C3CCN(C(=O)c4ccc(Cl)cc4)CC3)nc(N)n2)cc1	Jurkat cells (PMA-stimulated)	-	>5 µM
COC(=O)N[C@H](C(=O)N[C@@H](C)CCC[C@@H](CO)N(C(C)C)S(=O)(=O)c1ccc(C(C)=O)cc1)C(c1ccccc1)c1ccccc1	T lymphoid cells	microscopy	>10 µM
O[C@@H]1[C@H](O)[C@H](O)CO[C@H]1n1c(Br)nc2cc(Cl)c(Cl)cc21	CBL	neutral red	>122 µM
CC(=O)n1cc(/C=C(\C)C(=O)Nc2ccc(C(C)(C)C)cc2)c2cc(C#N)ccc21	Huh7.5	MTT	40.74 µM
C/C(=N\NC(=O)c1ccncc1)c1cccc([N+](=O)[O-])c1	HEL cells	MTT	13 µg/mL
Nc1ncnc2c1ncn2O[C@H]1CO[C@@H](CO)O1	2.2.15	-	>100 µg/mL
Nc1ncnc2c1ncn2C[C@H]1CS[C@@H](P(=O)(O)O)O1	FLOW 2002	-	>100 µg/mL
CC(C)(C)c1ccc(NC(=O)/C(F)=C\c2c[nH]c3ccccc23)cc1	Huh7.5	MTT	10.4 µM
O=C(O)c1ccc(N2C(=O)c3cccc([N+](=O)[O-])c3C2=O)cc1O	L929	visual reading / absorbance	>100 µg/mL
CN(C)C(=O)c1nc2c(N)ncnc2n1[C@H]1CC[C@@H](CO)C1	HepG2 2.2.15	visual reading	>200 µM
Cc1nc(C)c(-c2n[nH]c(=S)n2-c2ccc3ccccc3c2)s1	KBALB	MTT	>100 µM
Cc1cn([C@@H]2C[C@@H](N=[N+]=[N-])[C@H](COP(=O)(COc3ccccc3)OC[C@H]3O[C@@H](n4cc(C)c(=O)[nH]c4=O)C[C@@H]3N=[N+]=[N-])O2)c(=O)[nH]c1=O	CEM-SS	-	37 µM
COc1cc(NC(C)CCCNC(=O)OC(C)(C)C)c2nc(C(F)(F)F)cc(C)c2c1-c1ccc(C(F)(F)F)cc1	RAW 264.7	-	>48 µg/mL
COc1ccc(Cc2cc(C3CCN(C(=O)c4ccc5c(c4)OCO5)CC3)n[nH]2)cc1	Jurkat cells (PMA-stimulated)	-	>5 µM
Cc1nc(C)c(C(=O)NNC(=S)NC23CC4CC(CC(C4)C2)C3)s1	KBALB	MTT	>100 µM
CN(C)CC1COc2ccc3nc4n(c3c2C1)CC(CN(C)C)CN4	Huh7.5	-	86 µM
C=C1C=C(C)[C@]2(C=C[C@H](C)O2)C(C)(C)C1	HL-60 cells	MTT	2.7 µM
C/C(=C\c1cn(CCN2CCOCC2)c2ccc(C#N)cc12)C(=O)Nc1ccc(C(C)(C)C)cc1	Huh7.5	MTT	>100 µM
O=C1NN(c2ccc(Br)cc2)C(=O)C1Cc1ccc([N+](=O)[O-])o1	MDM	-	40 µM
Nc1nc(NC2CC2)c2ncn(/C=C3/C[C@@H]3CO)c2n1	MEF	-	>367 µM
CCCCCCCCCCCCCC(=O)NCC(N)=O	LC5	-	>50 µg/mL
Cc1cn([C@@H]2O[C@H](CO)[C@@H](O)[C@@H]2F)c(=O)[nH]c1=O	H-1	-	50 µM
N=C1Sc2ccccc2C2=NCCCN12	Dendritic cells	LDH	>300 µM
CCCCN1C(c2sc(C)nc2C)=NNC1SCc1ccc(OC)cc1	143B	MTT	<100 µM
O=c1[nH]ncc(NN/C=C2/C=NC3C=CC=CC23)c1Cl	MDM	-	>100 µM

8 of the rows above, restated:

| smiles | cell line | read by | value |
|---|---|---|---|
| CCC(C)CC(C)/C=C(C)/C=C/C=C/C(O)=C1\C(=O)NC(C(O)c2ccc(O)cc2)C1=O | A549 human lung carcinoma cells | MTT | >120 µM |
| Nc1ncnc2c1ncn2C[C@H]1CS[C@@H](P(=O)(O)O)O1 | FLOW 2002 | - | >100 µg/mL |
| COc1cc(NC(C)CCCNC(=O)OC(C)(C)C)c2nc(C(F)(F)F)cc(C)c2c1-c1ccc(C(F)(F)F)cc1 | RAW 264.7 | - | >48 µg/mL |
| C/C(=C\c1cn(CCN(C)C)c2ccccc12)C(=O)Nc1ccc(C(C)(C)C)cc1 | Huh7.5 | MTT | 6.9 µM |
| CC(=O)n1cc(/C=C(\C)C(=O)Nc2ccc(C(C)(C)C)cc2)c2cc(C#N)ccc21 | Huh7.5 | MTT | 40.74 µM |
| CSc1nsc(-c2ccc(OCCOc3ccc(C#N)cc3)cc2)c1C#N | HEP-2/L-929/VERO | - | 2 µM |
| Nc1nc(NC2CC2)c2ncn(/C=C3/C[C@@H]3CO)c2n1 | MEF | - | >367 µM |
| Cc1cn([C@@H]2C[C@@H](N=[N+]=[N-])[C@H](COP(=O)(CN=[N+]=[N-])OC[C@H]3O[C@@H](n4cc(C)c(=O)[nH]c4=O)C[C@@H]3N=[N+]=[N-])O2)c(=O)[nH]c1=O | CEM-SS | - | 24.5 µM |